Assay results: patent US5767096A, “Bromotiacumicin compounds” (Abbott Laboratories, priority 1996, dated 1998)
In brackets after ≈: the same amount, converted by molar mass.

Test system: Clostridium perfringes ATCC 13124
Type: cell-based
Details: anaerobe, ~10^5 organisms per spot, 37° C., ~48 hours
Procedure: Fast atom bombardment mass spectra were measured on a Kratos MS-50 mass spectrometer. Ultraviolet spectra were recorded on a Perkin-Elmer Lambda 3B UV-visible spectrophotometer and infrared spectra on a Nicolet model 60SX FT-IR attached to a Nicolet computer. NMR spectra were acquired on either a General Electric GN500 or GN300 spectrometer. […] Rf values reported were acquired on Analtech TLC plates developed with chloroform:methanol (9:1, v:v) and were visualized using ceric sulfate spray reagent. Melting points were determined on a Hoover Unimelt and are reported uncorrected. Minimal inhibitory concentrations were determined by twofold agar dilution. Brain heart infusion agar was used for aerobes and Wilkins-Chalgren agar for anaerobes.
For primary screening of compounds of the invention against anaerobic bacteria such as Clostridium, minimal inhibitory concentrations (MICs) were determined by the following agar dilution method: Series of two-fold dilutions of the test compounds were added to Wilkins-Chalgren agar. The agar plates were inoculated with approximately 10^5 organisms per spot of each of the organisms to be tested. The inoculated agar plates were then incubated at 37° C. for approximately 48 hours. The MICs were determined as the minimal concentration of test compound (in […]) that inhibited visible growth.

CCc1c(Cl)c(O)c(Cl)c(O)c1C(=O)O[C@H]1[C@H](O)[C@H](OC)[C@H](OC/C2=C\C=C\C[C@H](O)/C(C)=C/[C@H](CC)[C@@H](O[C@@H]3OC(C)(C)[C@@H](OC(=O)C(C)C)[C@H](O)[C@@H]3O)/C(C)=C/C(C)=C/C[C@@H]([C@@H](C)O)OC2=O)O[C@@H]1C [Tiacumicin B, tiacumicin B, reference compound]
MIC: 0.06 µg/mL (≈ 0.0567 µM)
